Pooled drug test results. Numbers come from NIAID ChemDB, via PubChem.

Common to all: growth or infection tests; species: HIV-1

Inhibition is in % at the dose shown (toxicity tests: loss of growth or viability).

{"smiles": "Cc1cc(CN2CCn3c(nc(C(=O)NCc4ccc(F)cc4)c(O)c3=O)C2(C)C)no1", "endpoint": "EC95", "read by": "p24", "cells": "MT-4", "result": "<1 µM"}
{"smiles": "Cc1nc2ccc(C(=O)NC(C)(C)C(=O)NC[C@H](O)[C@@]34CC[C@]5(C)[C@H](CC[C@@H]6[C@@]7(C)CC[C@H](OC(=O)[C@H]8C[C@@H](C(=O)O)C8(C)C)C(C)(C)[C@@H]7CC[C@]65C)C3=C(C(C)C)C(=O)C4)cc2[nH]1", "endpoint": "EC50", "read by": "p24 / ELISA", "cells": "MT-2", "strain": "92HT599", "result": "<1 µM"}
{"smiles": "O=C1[C@@H](Cc2ccccc2)NC(=S)N1Cc1ccccc1", "endpoint": "inhibition", "read by": "cytopathic effect / XTT", "cells": "MT-4", "tested at": "10 µg/mL", "result": "29–46%"}
{"smiles": "Cc1cc(S(N)(=O)=O)ccc1NC(=O)COc1ccc(Cl)cc1C(=O)c1cccc(C#N)n1", "endpoint": "fold resistance", "read by": "β-galactosidase", "cells": "HeLa + HELA CD4+", "mutations": "RT-K103N Y181C", "strain": "HXB2 (RT-K103N Y181C) Recombinant", "result": "~1"}
{"smiles": "CN1CCN(S(=O)(=O)N(C)C2COCCn3c2nc(C(=O)NCc2ccc(F)cc2)c(O)c3=O)CC1", "endpoint": "EC95", "read by": "p24", "cells": "MT-4", "result": "<1 µM"}
{"smiles": "CCC(=O)c1ccc(F)c([C@@H]2C[C@@H]2NC(=O)Nc2ccc(C#N)cn2)c1O", "endpoint": "fold resistance", "read by": "β-galactosidase / luminescence", "cells": "TZM-bl", "mutations": "NNRTI-resistant (RT G190A)", "strain": "LAI", "result": "0.6"}
{"smiles": "Cc1cc(C#N)cc(C(=O)c2cc(Cl)ccc2OCC(=O)Nc2cnc(S(N)(=O)=O)cc2C)c1", "endpoint": "fold resistance", "read by": "β-galactosidase", "cells": "HeLa + HELA CD4+", "mutations": "RT-K103N V108I", "strain": "HXB2", "result": "~1"}
{"smiles": "O=C1Nc2ccc(Cl)cc2[C@@](C#CC2CC2)(C(F)(F)F)N1", "endpoint": "EC90", "result": "0.0019 µM"}
{"smiles": "CC(C)C1=C2[C@H]3CC[C@@H]4[C@@]5(C)CC[C@H](OC(=O)[C@H]6C[C@@H](C(=O)O)C6(C)C)C(C)(C)[C@@H]5CC[C@@]4(C)[C@]3(C)CC[C@@]2(CC(=O)NCc2ccc(Cl)cc2OCCN2CCOCC2)CC1=O", "endpoint": "EC50", "read by": "p24 / ELISA", "cells": "MT-2", "strain": "92HT599", "result": "<1 µM"}
{"smiles": "Cc1ccc(C2CC2)c(-c2ccc3c(c2C)CCCO3)c1[C@H](OC(C)(C)C)C(=O)O", "endpoint": "fold resistance", "read by": "p24 / luminescence", "cells": "MT-4", "mutations": "A128T", "strain": "NL4-3", "result": "2"}
{"smiles": "C/C=C/CSc1cc(NC(=S)c2ccsc2C)ccc1Cl", "endpoint": "fold resistance", "read by": "p24", "cells": "CEM + CEM-SS", "mutations": "RT-L100I", "strain": "NL4-3", "result": "28"}
{"smiles": "Cc1cc(N2CCS(=O)CC2)ccc1NC(=O)COc1ccc(Cl)cc1C(=O)c1cccs1", "endpoint": "fold resistance", "read by": "β-galactosidase", "cells": "HeLa + HELA CD4+", "mutations": "RT-K103N Y181C", "strain": "HXB2 (RT-K103N Y181C) Recombinant", "result": "~100"}
{"smiles": "CN(C)CC1c2nc(C(=O)NCc3ccc(F)cc3)c(O)c(=O)n2CCN1C(=O)C(=O)N(C)C", "endpoint": "EC95", "read by": "p24", "cells": "MT-4", "result": "<50 µM"}
{"smiles": "COc1ccc(CNC(=O)C[C@@]23CC[C@]4(C)[C@H](CC[C@@H]5[C@@]6(C)CC[C@H](OC(=O)[C@H]7C[C@@H](C(=O)O)C7(C)C)C(C)(C)[C@@H]6CC[C@]54C)C2=C(C(C)C)C(=O)C3)cc1", "endpoint": "EC50", "read by": "p24 / ELISA", "cells": "MT-2", "strain": "92HT599", "result": "<1 µM"}
{"smiles": "CS(=O)(=O)Nc1ccc(NC(=O)COc2ccc(Cl)cc2C(=O)c2ccccc2)cc1", "endpoint": "fold resistance", "read by": "β-galactosidase", "cells": "HeLa + HELA CD4+", "mutations": "RT-K103N", "strain": "HXB2", "result": "~10"}
{"smiles": "COc1ccnc2[nH]cc(C(=O)C(=O)N3C4CCC3CN(C(=O)c3ccccc3)C4)c12", "endpoint": "EC99", "read by": "luciferase", "cells": "TZM-bl", "strain": "SF162", "result": "88 µM"}
{"smiles": "CC(C)=CCOc1cc(NC(=S)c2ccoc2C)ccc1Cl", "endpoint": "fold resistance", "read by": "cytopathic effect / XTT", "cells": "CEM + CEM-SS", "mutations": "RT-A98G V108I", "strain": "TIBO R82150-resistant (RT A98G V108I)", "result": "30"}
{"smiles": "CC(C)CN(CC(O)CNC1c2ccccc2CC1O)S(=O)(=O)c1ccccc1", "endpoint": "EC90", "read by": "p24", "cells": "CEM", "strain": "IIIB", "result": "1 µM"}
{"smiles": "O=C(NCCc1ccccc1)Nc1nc2ccc(Cl)cc2s1", "endpoint": "inhibition", "read by": "RT activity", "cells": "MT-4", "tested at": "100 µg/mL", "result": "96%"}
{"smiles": "Cc1cc(S(N)(=O)=O)ccc1NC(=O)COc1ccc(Cl)cc1C(=O)c1cc(F)cc(C#N)c1", "endpoint": "fold resistance", "read by": "β-galactosidase", "cells": "HeLa + HELA CD4+", "mutations": "RT-V106I Y181C", "strain": "HXB2", "result": "~10"}
{"smiles": "COc1ccc(S(=O)(=O)N(CC(C)C)C[C@@H](O)CCN(CC2CCCC2)S(=O)(=O)C2C(=O)CC(C)(C)S(=O)(=O)C2=O)cc1", "endpoint": "EC90", "read by": "p24", "cells": "CEM", "strain": "IIIB", "result": "1 µM"}
{"smiles": "Cc1cc(S(N)(=O)=O)ccc1NC(=O)COc1ccc(Cl)cc1C(=O)c1cccc(C#N)c1", "endpoint": "fold resistance", "read by": "β-galactosidase", "cells": "HeLa + HELA CD4+", "mutations": "RT-K103N V108I", "strain": "HXB2", "result": "~1"}
{"smiles": "O=C1Nc2ccc(F)c(F)c2[C@@](C#CC2CC2)(C(F)(F)F)N1", "endpoint": "EC90", "mutations": "RT-V108I", "result": "<0.012 µM"}
{"smiles": "Nc1nc(NC2CC2)c2ncn([C@H]3C=C[C@@H](CO)C3)c2n1", "endpoint": "EC90", "read by": "p24", "cells": "PBMC", "mutations": "RT-M41L D67N K70R T215Y K219Q", "strain": "XM-AZT-resistant", "result": "4.5 µM"}
{"smiles": "CC(C)C1=C2[C@H]3CC[C@@H]4[C@@]5(C)CC[C@H](OC(=O)[C@H]6C[C@@H](C(=O)O)C6(C)C)C(C)(C)[C@@H]5CC[C@@]4(C)[C@]3(C)CC[C@@]2([C@@H](O)CNC(=O)C(C)(C)NC(=O)c2nccn2C)CC1=O", "endpoint": "EC50", "read by": "p24 / ELISA", "cells": "MT-2", "strain": "92HT599", "result": "<1 µM"}
{"smiles": "O=C(O)c1cc(-n2cccc2)ccc1Cl", "endpoint": "EC90", "read by": "p24", "cells": "PBMC + MT-2", "strain": "RU570 R5 CLADE G", "result": "105 µM"}
{"smiles": "COc1ccccc1C(=O)Nc1ccc(Cl)c(C(=O)OC(C)C)c1", "endpoint": "fold resistance", "read by": "cytopathic effect / XTT", "cells": "CEM + CEM-SS", "mutations": "RT-Y181C K101E", "strain": "UC10-resistant (RT Y181C K101E)", "result": ">21.5"}
{"smiles": "O=C(NCCc1ccccc1)Nc1ccccc1", "endpoint": "inhibition", "read by": "cytopathic effect / XTT", "cells": "MT-4", "tested at": "10 µg/mL", "result": "25%"}
{"smiles": "CN(C)CC1c2nc(C(=O)NCc3ccc(F)cc3)c(O)c(=O)n2CCN1C", "endpoint": "EC95", "read by": "p24", "cells": "MT-4", "result": "1–10 µM"}
{"smiles": "Cc1nnc(NC(=O)NCCc2ccccc2)s1", "endpoint": "inhibition", "read by": "cytopathic effect / XTT", "cells": "MT-4", "tested at": "1 µg/mL", "result": "3%"}
{"smiles": "CN(C)CC1c2nc(C(=O)NCc3ccc(F)cc3)c(O)c(=O)n2CCN1S(C)(=O)=O", "endpoint": "EC95", "read by": "p24", "cells": "MT-4", "result": "<50 µM"}
{"smiles": "COc1ccnc2[nH]cc(C(=O)C(=O)N3C4CC3CN(C(=O)c3ccccc3)C4)c12", "endpoint": "EC99", "read by": "luciferase", "cells": "TZM-bl", "strain": "PVO", "result": ">>250 µM"}
{"smiles": "CC(C)[C@H](NC(=O)OCc1ccccn1)C(=O)N[C@@H](Cc1ccccc1)[C@@H](O)C[C@H](Cc1ccccc1)NC(=O)OCc1cccnc1", "endpoint": "EC95", "read by": "p24", "cells": "MT-4", "mutations": "PR-I84V", "strain": "NL4-3", "result": "0.8 µM"}
{"smiles": "O=C(NCCc1ccccc1)Nc1ncccn1", "endpoint": "inhibition", "read by": "cytopathic effect / XTT", "cells": "MT-4", "tested at": "1 µg/mL", "result": "0%"}
{"smiles": "CC(C)C1=C2[C@H]3CC[C@@H]4[C@@]5(C)CC[C@H](OC(=O)[C@H]6C[C@@H](C(=O)O)C6(C)C)C(C)(C)[C@@H]5CC[C@@]4(C)[C@]3(C)CC[C@@]2(CC(=O)NCc2nccn2C)CC1=O", "endpoint": "EC50", "read by": "p24 / ELISA", "cells": "MT-2", "strain": "92HT599", "result": "<1 µM"}
{"smiles": "COc1ccc(S(=O)(=O)N(CC[C@@H](O)CN(CC(C)C)S(=O)(=O)c2ccc(OC)cc2)CC2CCCC2)cc1", "endpoint": "EC90", "read by": "p24", "cells": "CEM", "strain": "IIIB", "result": "1 µM"}
{"smiles": "Cc1cc2cn[nH]c2cc1NC(=O)COc1ccc(Cl)cc1C(=O)c1cccc(C#N)c1", "endpoint": "fold resistance", "read by": "cytopathic effect / propidium iodide", "cells": "MT-4", "mutations": "RT-Y181C", "strain": "Nevirapine-resistant (RT Y181C)", "result": "~1"}
{"smiles": "CC(C)C1=C2[C@H]3CC[C@@H]4[C@@]5(C)CC[C@H](OC(=O)[C@H]6C[C@@H](C(=O)O)C6(C)C)C(C)(C)[C@@H]5CC[C@@]4(C)[C@]3(C)CC[C@@]2(CC(=O)NC(C)(C)c2ncc(Cl)cn2)CC1=O", "endpoint": "EC50", "read by": "p24 / ELISA", "cells": "MT-2", "strain": "92HT599", "result": "<1 µM"}
{"smiles": "O=C(c1ccccc1)N(CCc1ccccc1)C[C@H](O)CN(CC1CCCC1)S(=O)(=O)c1ccncc1", "endpoint": "EC90", "read by": "p24", "cells": "CEM", "strain": "IIIB", "result": "1 µM"}
{"smiles": "Nc1nc(=O)n([C@H]2C=C[C@@H](CO)O2)cc1F", "endpoint": "EC90", "read by": "p24", "cells": "PBMC", "mutations": "RT-T69SSS L210W T215Y", "strain": "XM-T69SSS", "result": "6.6 µM"}
{"smiles": "CC(C)=CCOc1cc(NC(=S)c2ccsc2C)ccc1Cl", "endpoint": "fold resistance", "read by": "cytopathic effect / XTT", "cells": "CEM + CEM-SS", "mutations": "RT-V108I", "strain": "Thiazolobenzimidazole-resistant (RT V108I)", "result": "7.5"}
{"smiles": "Cc1cc(S(N)(=O)=O)ccc1NC(=O)COc1ccc(Cl)cc1C(=O)c1cc(Cl)cc(C#N)c1", "endpoint": "fold resistance", "read by": "β-galactosidase", "cells": "HeLa + HELA CD4+", "mutations": "RT-K103N Y181C", "strain": "HXB2 (RT-K103N Y181C) Recombinant", "result": "~1"}
{"smiles": "CC(C)C1=C2[C@H]3CC[C@@H]4[C@@]5(C)CC[C@H](OC(=O)[C@H]6C[C@@H](C(=O)O)C6(C)C)C(C)(C)[C@@H]5CC[C@@]4(C)[C@]3(C)CC[C@@]2([C@@H](O)CNC(=O)C(C)(C)NC(=O)c2ccc(N3CCN(C)CC3)cc2)CC1=O", "endpoint": "EC50", "read by": "p24 / ELISA", "cells": "MT-2", "strain": "92HT599", "result": "<1 µM"}
{"smiles": "Cc1ccc(C2CC2)c(-c2cc(F)c3c(c2C)CCCO3)c1[C@H](OC1CC1)C(=O)O", "endpoint": "fold resistance", "read by": "luminescence", "cells": "MT-4", "mutations": "INSTI-resistant (IN-Y143R)", "strain": "NL4-3", "result": "0.4"}
{"smiles": "CC(C)C1=C2[C@H]3CC[C@@H]4[C@@]5(C)CC[C@H](OC(=O)[C@H]6C[C@@H](C(=O)O)C6(C)C)C(C)(C)[C@@H]5CC[C@@]4(C)[C@]3(C)CC[C@@]2(CC(=O)NC[C@H]2CCCCN2)CC1=O", "endpoint": "EC50", "read by": "p24 / ELISA", "cells": "MT-2", "strain": "92HT599", "result": "<1 µM"}
{"smiles": "O=C(NCCc1ccccc1)Nc1nc(C(F)(F)F)cs1", "endpoint": "inhibition", "read by": "cytopathic effect / XTT", "cells": "MT-4", "tested at": "100 µg/mL", "result": "31–66%"}

ECn is the concentration giving n% inhibition of infection, replication or growth. Conditions beyond the fields shown may differ between rows. Two numbers with a dash give a range or band. Fold resistance has wild type as its base.